PubChem BioAssay AID504761, Drosophila RNAi Screening Center, 2011
Aim: 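Genome-wide fly cell screen for genes dengue virus requires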 (primary screen). Cell system: D.Mel-2 cells from Drosophila. Knock-down reagent: long dsRNA against Drosophila genes. Conditions: infection with dengue virus type 2; dose and infection time not stated. Measurement: 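Per well on two replicate plates, imaging gave the percent of cells positive for viral envelope protein, ranked by infection, and a nuclear count of cells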. Reading the numbers: infection score: higher = more virus-infected cells; cell count: higher = more cells in the well. Call rule: 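Low infection ranks in the two replicates (chance level up to 0.065) followed by a retest with a 1.5-fold or larger significant decrease, p below 0.05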. Meaning of the calls: active = confirmed: knock-down lowers infection; inactive = not picked or not confirmed.
In all, the deposit lists about 22,000 reagents; below is an unselected part of those that have a named target and a result. In the full data, 116 (0.52%) got an active call. 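Calls depend on retest data that are not deposited; infection was ranked per plate without normalising between plates; the unit of the infection score is not given.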 Raw values vary from plate to plate and are shown uncorrected. Not stated in the record: the amount of reagent, the time to read-out.

gene knocked down,DRSC id,"infection score, replicate 1","infection score, replicate 2","cell count, replicate 1","cell count, replicate 2",activity call
CG13148,DRSC06275,3.53,21.5,878,6864,inactive
CG32195,DRSC09533,2.13,0.93,6252,5934,inactive
CG5323,DRSC06929,1.64,4.1,5735,6273,inactive
CG14958,DRSC08417,0.38,1.44,5855,5979,inactive
CG31787,DRSC01632,0.19,0.15,6440,6529,inactive
CG32023,DRSC08946,3.13,1.49,6079,6295,inactive
CG7841,DRSC10922,5.88,4.94,6291,6434,inactive
CG31270 (retired record),DRSC22252,1.79,10.6,5418,6780,inactive
CG31270 (retired record),DRSC28445,21.5,20.9,4906,6485,inactive
dy (dusky),DRSC20325,1.6,3.95,6453,6380,inactive
dy (dusky),DRSC25539,3.51,3.91,6693,6606,inactive
CG1407,DRSC29339,29.9,,6195,430,inactive
Acbp5 (Acyl-CoA binding protein 5),DRSC10548,0.61,3.02,6545,6449,inactive
msl-2 (male-specific lethal 2),DRSC00829,1.49,0.54,6183,6472,inactive
msl-2 (male-specific lethal 2),DRSC28208,5.26,12.2,1427,3697,inactive

Part of the list above, limited to “infection score, replicate 1”.
CG31270 (retired record) [DRSC22252]	1.79
CG31270 (retired record) [DRSC28445]	21.5

The listing continues.
gene knocked down,DRSC id,"infection score, replicate 1","infection score, replicate 2","cell count, replicate 1","cell count, replicate 2",activity call
CG6067,DRSC18399,1.78,5.79,6233,6738,inactive
CG1544,DRSC15036,2.79,3.82,5704,6434,inactive
wmd (wing morphogenesis defect),DRSC04436,2.62,5.86,7357,6126,inactive
wmd (wing morphogenesis defect),DRSC29254,12.1,12.1,4316,730,inactive
Efa6 (Exchange factor for Arf 6),DRSC13569,0.49,0.83,6597,6376,inactive
Efa6 (Exchange factor for Arf 6),DRSC16141,,,398,321,inactive
Efa6 (Exchange factor for Arf 6),DRSC29705,22.8,12.3,5516,6041,inactive
qkr58E-2 (quaking related 58E-2),DRSC04710,,,370,330,inactive
qkr58E-2 (quaking related 58E-2),DRSC25296,14.9,6.26,5130,6344,inactive
